Test systems include Candida globrata 648; Candida globrata 578; Candida globrata 572; Candida globrata 646; Candida globrata 566.
Experiment in all cases: microbe, parasite or virus in culture
The test system of the next assay is Candida krusei 603. Particulars: Pichia kudriavzevii.
In the next assay the test system is Candida krusei 638. As to conditions: Pichia kudriavzevii.

In brackets after ≈: the same amount, converted by molar mass.

In patent publication US20090131366A1, “Use of Amine-Borane Compounds as Anti-Microbial Agents” (priority 2005, published 2009) one finds MIC data, which are given here for one compound.

On to `CCCCCCCCCCCN(C)C` [K-I2, dimethyl-undecyl-amine cyanodibromoborane], for which the MIC with Candida globrata 648 was found to be 20.2 µM (≈ 4.03 µg/mL); in the assay on Candida globrata 578 it was 40.4 µM (≈ 8.06 µg/mL); in the assay with Candida krusei 603, 10.1 µM (≈ 2 µg/mL); in the assay with Candida globrata 572, 40.4 µM (≈ 8.06 µg/mL); against Candida globrata 646, 20.2 µM (≈ 4.03 µg/mL); in the assay with Candida globrata 566 it was 20.2 µM (≈ 4.03 µg/mL). This compound also came in with an MIC against Candida krusei 638 of 10.1 µM (≈ 2 µg/mL).
